Results of unrelated studies side by side (data: NIAID ChemDB).

Shared fields: cytotoxicity tests; measure: CC50

CCn: concentration that lowers growth or viability of the cells by n%. Blank or dashed fields: not listed here. Rows are shuffled and stem from different studies.

smiles | method | cell line | value
COc1cc(NC(=O)NCCc2ccc3c(n2)NCCC3)cc(OC)c1 |  | PBMC | 1.1 µM
CCOC(=O)C1=C(CN2CC(F)(F)[C@@H]3[C@H]2CON3C[C@H](OC)C(C)(C)C(=O)O)NC(c2nccs2)=N[C@H]1c1ccc(F)c(F)c1Cl | WST / absorbance | HepG2.2.15 | 74.7 µM
CCOC(=O)CCCCCOc1cccc(CN(C(=O)c2ccc(-c3cccc(C#N)c3)cc2)C(C)C)c1 |  | BJ | >20 µM
NC(=S)Nc1cccc(OCCCCOc2ccc(-c3ccccc3)cc2)c1 | MTS | Ava5-EG(delta4AB)SEAP | >1 µM
CN(C)C(=O)c1c(O)c2cccnc2n(O)c1=O |  | HeLa | <100 µM
CC(C)Oc1cccc(CCNC(=O)Nc2cccc(F)c2)n1 |  | PBMC | 50 µM
COC(=O)C1=C(CN2CC(F)(F)[C@@H]3[C@H]2CON3C[C@H](O)C(C)(C)C(=O)O)NC(c2nccs2)=N[C@H]1c1ccc(F)c(F)c1C | WST / absorbance | HepG2.2.15 | 100 µM
CCOC(=O)CCCCCOc1cccc(CN(C(=O)c2ccc(-c3cccc(F)c3)cc2)C(C)C)c1 |  | BJ | >20 µM
Cc1ccc(NC(=O)NCCc2ccc3c(n2)NCCC3)cc1F |  | PBMC | 2.5 µM
NC(=S)Nc1cccc(OCCCCCNc2ccc(C3CCCCC3)cc2)c1 | MTS | Ava5-EG(delta4AB)SEAP | >1 µM
CCOC(=O)C1=C(CN2CC(F)(F)[C@@H]3[C@H]2CON3CCC(O)C(C)(C)C(=O)O)NC(c2nccs2)=N[C@H]1c1cccc(F)c1C | WST / absorbance | HepG2.2.15 | 18.3 µM
NC(=S)Nc1ccc2c(c1)Cc1cc(NCc3ccccc3)ccc1-2 | MTS | Ava5-EG(delta4AB)SEAP | >1 µM
Cn1ccc2c(NC(=O)NCC3CCc4ccccc4N3)cccc21 |  | PBMC | 50 µM
NC(=S)Nc1cccc(OCCCCCOc2ccccc2-c2ccccc2)c1 | MTS | Ava5-EG(delta4AB)SEAP | >1 µM
CN1CCN(Cc2cccc(CNc3cc(=O)n(O)c4ncccc34)c2)CC1 |  | HeLa | 0.07 µM
CCOC(=O)CCCCCOc1cccc(CNC(C)C)c1 |  | HEK 293 | >20 µM
NC(=S)Nc1cccc(OCCCCCOc2ccc(Br)cc2)c1 | MTS | Ava5-EG(delta4AB)SEAP | >1 µM
CCOC(=O)c1c(-c2cc(CCc3ccccc3F)cc(-c3ccc(CN)cc3)c2)c2cccnc2n(O)c1=O |  | HeLa | <100 µM
O=C(NCCc1ccc2c(n1)NCCC2)Nc1c(F)cccc1F |  | PBMC | 50 µM
CCOC(=O)CCCCCOc1cccc(CN(C(=O)c2ccc(-c3cccc(CC(=O)O)c3)cc2)C(C)C)c1 |  | BJ | >20 µM
CCOC(=O)c1c(O)c2cc(C(=O)N3CCC(Cc4ccccc4)C3)cnc2n(O)c1=O |  | HeLa | <100 µM
COC(=O)C1=C(CN2CC(F)(F)[C@H]3[C@@H]2CCN3CC[C@@](C)(O)C(=O)O)NC(c2nccs2)=N[C@H]1c1ccc(F)c(F)c1Cl | WST / absorbance | HepG2.2.15 | >50 µM
COCCCNC(=S)Nc1ccc2c(c1)Cc1cc(Br)ccc1-2 | MTS | Ava5-EG(delta4AB)SEAP | >1 µM

Repeating the first 2 entries:

smiles,method,cell line,value
COc1cc(NC(=O)NCCc2ccc3c(n2)NCCC3)cc(OC)c1,,PBMC,1.1 µM
CCOC(=O)C1=C(CN2CC(F)(F)[C@@H]3[C@H]2CON3C[C@H](OC)C(C)(C)C(=O)O)NC(c2nccs2)=N[C@H]1c1ccc(F)c(F)c1Cl,WST / absorbance,HepG2.2.15,74.7 µM